Compound potency records, mixed from different reports. Data source: NIAID ChemDB in PubChem.

Shared fields: whole-cell or culture tests; organism: Poliovirus; read-out: EC50

Conditions beyond the fields shown may differ between rows. ECn is the concentration giving n% inhibition of infection, replication or growth.

compound,strain,cell line,value
Nc1ncnc2c1ncn2[C@@H]1C[C@H](CO)[C@@H](O)C1,TYPE 1,HeLa,100 µg/mL
N#Cc1c(N2CCCC2)nsc1-c1ccccc1,Brunhilde (type 1),HEP-2,0.1 µg/mL
NC(=O)c1ncn([C@@H]2O[C@H](CO)[C@@H](O)[C@H]2O)c1C#CCO,TYPE 1,HeLa,>400 µg/mL
Nc1nccc2c1ncn2[C@@H]1C[C@H](CO)[C@@H](O)[C@H]1O,TYPE 1,HeLa,>400 µg/mL
NC(=O)c1ncn([C@@H]2O[C@H](CO)[C@@H](O)[C@H]2O)c1C#Cc1ccccc1,TYPE 1,HeLa,>400 µg/mL
CSc1nsc(-c2ccccc2)c1C(=O)O,Brunhilde (type 1),HEP-2,>500 µg/mL
Nc1nccc2c1ncn2[C@@H]1C=C(CO)[C@@H](O)[C@H]1O,TYPE 1,HeLa,>400 µg/mL
N#CCSc1nsc(-c2ccccc2)c1C#N,Brunhilde (type 1),HEP-2,0.5 µg/mL
Cc1cn([C@H]2C[C@@H]3OC[C@H]2[C@@H]3CO)c(=O)[nH]c1=O,TYPE 1,HeLa,400 µg/mL
Nc1ncnc2c1ccn2[C@@H]1O[C@H](CO)[C@@H](O)[C@H]1O,TYPE 1,HeLa,0.2 µg/mL
NC(=O)c1ncn([C@@H]2O[C@H](CO)[C@@H](O)[C@H]2O)n1,TYPE 1,HeLa,>400 µg/mL
Nc1nccc2c1ncn2[C@@H]1C[C@H](CO)[C@@H](O)[C@H]1O,TYPE 1,HeLa,>400 µg/mL
O=c1[nH]c(=O)n([C@H]2C[C@H](O)[C@@H](CO)O2)cc1/C=C/Br,TYPE 1,HeLa,>400 µg/mL
Cc1cn([C@@H]2C[C@H](CO)[C@H](O)C2)c(=O)[nH]c1=O,TYPE 1,HeLa,400 µg/mL
Nc1nc2c(nnn2C[C@H]2CC[C@@H](CO)C2)c(=O)[nH]1,TYPE 1,HeLa,>200 µg/mL
Cc1cc(=O)c2c(O)c3c(O)cc(O)c4c5c(O)cc(O)c6c(O)c7c(=O)cc(C)c8c1c2c(c34)c(c65)c78,Brunhilde (type 20),BSC-1,>100 µg/mL
OC[C@H]1O[C@@H](n2cnc3cc(Cl)c(Cl)cc32)[C@@H](O)[C@H]1O,TYPE 1,HeLa,>100 µg/mL
Nc1nccc2c1ncn2[C@@H]1C[C@H](CO)[C@@H](O)[C@H]1O,TYPE 1,HeLa,>400 µg/mL
Nc1ccn([C@@H]2C[C@H](CO)[C@@H](O)[C@H]2O)c(=O)n1,TYPE 1,HeLa,>400 µg/mL
COC(=O)c1c(SC)nsc1-c1ccccc1,Brunhilde (type 1),HEP-2,0.09 µg/mL
OCCOC(CO)n1cnc2cc(Cl)c(Cl)cc21,TYPE 1,HeLa,>200 µg/mL
Nc1nc2c(ncn2C[C@H]2CC[C@@H](CO)C2)c(=O)[nH]1,TYPE 1,HeLa,>200 µg/mL
OC[C@H]1O[C@@H](n2cnc3cc(Cl)c(Cl)cc32)[C@@H](O)[C@@H]1O,TYPE 1,HeLa,>10 µg/mL
Cc1cn([C@H]2C[C@H](O)[C@@H](CO)[C@@H]2C)c(=O)[nH]c1=O,TYPE 1,HeLa,400 µg/mL
N#Cc1c(SCCCBr)nsc1-c1ccccc1,Brunhilde (type 1),HEP-2,>25 µg/mL
Nc1nccc2c1ncn2[C@@H]1O[C@H](CO)[C@@H](O)[C@H]1O,TYPE 1,HeLa,≥40 µg/mL
CN(C)c1nsc(-c2ccccc2)c1C#N,Brunhilde (type 1),HEP-2,0.2 µg/mL
OC[C@H]1O[C@H](n2cnc3cc(Cl)c(Cl)cc32)[C@@H](O)[C@H]1O,TYPE 1,HeLa,>200 µg/mL
Nc1ncnc2c1ncn2C[C@@H](O)[C@H](O)C(=O)O,TYPE 1,HeLa,>400 µg/mL
Nc1ncnc2c1ncn2[C@@H]1C=C[C@@H](O)[C@H]1O,TYPE 1,HeLa,>400 µg/mL
Nc1ncnc2c1ncn2C[C@H](O)CO,TYPE 1,HeLa,>400 µg/mL
CCCC#Cc1c(C(N)=O)ncn1[C@@H]1O[C@H](CO)[C@@H](O)[C@H]1O,TYPE 1,HeLa,>200 µg/mL
OCCOC([C@H](O)CO)n1cnc2cc(Cl)c(Cl)cc21,TYPE 1,HeLa,>200 µg/mL
Nc1ncnc2c1ncn2C[C@H](O)CO,TYPE 1,HeLa,>400 µg/mL
Nc1ncnc2c1c(Br)cn2[C@@H]1O[C@H](CO)[C@@H](O)[C@H]1O,TYPE 1,HeLa,0.007 µg/mL

A second listing of 4 rows from above:

compound	strain	cell line	value
Nc1ncnc2c1ncn2[C@@H]1C=C[C@@H](O)[C@H]1O	TYPE 1	HeLa	>400 µg/mL
Nc1ncnc2c1c(Br)cn2[C@@H]1O[C@H](CO)[C@@H](O)[C@H]1O	TYPE 1	HeLa	0.007 µg/mL
Cc1cn([C@H]2C[C@H](O)[C@@H](CO)[C@@H]2C)c(=O)[nH]c1=O	TYPE 1	HeLa	400 µg/mL
Nc1ncnc2c1ncn2[C@@H]1C[C@H](CO)[C@@H](O)C1	TYPE 1	HeLa	100 µg/mL